Test results published in patent EP1137786B1.

Target: full-length single chain (FLSC) gp120-CD4 chimeric polypeptide (HIV-1 BaL; human)

Substance: full-length single chain (FLSC) gp120-CD4 chimeric polypeptide
- percent of total protein in the 302 kD band after crosslinking: 25%
- percent of total protein in the higher order band after crosslinking: 10%
